# Potato spindle tuber viroid, loop 15: variant abundance in plants

From the data files of Wu et al. 2024, doi:10.1371/journal.ppat.1012142.

Region: loop 15 of PSTVd (intermediate strain), upper and lower strand joined, each 5' to 3', the first 7 letters being the upper strand, closing pairs included. Wild type: GGAAACCGCUACUAC. Varied positions (N): GGAAACCGNNNNNNC.

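A pool of all variants was put on leaves of three Nicotiana benthamiana plants. Samples came from the inoculated region at 5 days, the leaf margin at 10 and upper systemic leaves at 12.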

Numbers give reads per thousand; 0 = not seen among the reads, higher = more abundant.
Each site shows the three plants.
"Pool" is the share in the plasmid pool used as inoculum, on the same scale.
The inoculated region was read from the minus strand, the other sites from the plus strand.
Sequences that differ at fixed positions probably stem from PCR or sequencing errors, and defective variants can be carried along by functional ones.
For reference, wild type rose from 33.9 per thousand in the pool to 202, 200, 159 (inoculated region), 724, 746, 710 (leaf margin) and 856, 883, 880 (systemic leaves).
With 43,870-66,106 reads a sample, very low values are single reads.

sequence,pool,inoculated region,leaf margin,systemic leaves
GGAAACCGAGGUGCC,0.224,0.0491 0.145 0.133,0 0 0,0 0 0
GGAAACCGAGGUGGC,0.208,0.131 0.112 0.0381,0 0 0,0 0 0
GGAAACCGAGGUGUC,0.400,0.0819 0 0.0952,0 0 0.0200,0 0 0
GGAAACCGAGGUUAC,0.176,0.0655 0.0643 0.0762,0 0 0,0 0 0
GGAAACCGAGGUUCC,0.176,0.0819 0.193 0.0571,0 0.0223 0,0 0 0
GGAAACCGAGGUUGC,0.240,0.0983 0.0643 0.0952,0 0.0223 0,0 0 0
GGAAACCGAGGUUUC,0.256,0.0491 0.0964 0.0571,0 0 0.0200,0 0 0
GGAAACCGAGUAAAC,0.240,0.131 0.0482 0.0762,0.0162 0 0.0200,0 0 0
GGAAACCGAGUAACC,0.272,0.131 0.0964 0.0381,0 0 0.0200,0 0 0
GGAAACCGAGUAAGC,0.176,0.246 0.161 0.209,0.0162 0 0.0200,0 0 0
GGAAACCGAGUAAUC,0.384,0.0819 0.129 0.171,0 0 0,0 0 0
GGAAACCGAGUACAC,0.256,0.0819 0.0643 0.0762,0 0.0668 0,0 0 0
GGAAACCGAGUACCC,0.192,0.180 0.145 0.190,0 0.0223 0,0.0161 0 0
GGAAACCGAGUACGC,0.368,0.0983 0.0803 0.133,0.0162 0 0,0.0161 0 0
GGAAACCGAGUACUC,0.128,0.0819 0.0643 0.133,0 0 0,0 0 0
GGAAACCGAGUAGAC,0.208,0.0491 0.0803 0.152,0 0 0,0 0 0
GGAAACCGAGUAGCC,0.160,0.115 0.0803 0.0762,0.0162 0.0223 0.0200,0 0 0
GGAAACCGAGUAGGC,0.240,0.115 0.145 0.171,0 0 0.0200,0 0 0
GGAAACCGAGUAGUC,0.192,0.147 0.0161 0.0952,0.0162 0.0223 0,0 0 0
GGAAACCGAGUAUAC,0.352,0.393 0.289 0.609,0.129 2.38 0.120,0.0483 0.0303 0.137
GGAAACCGAGUAUCC,0.272,0.197 0.289 0.0762,0 0.0223 0.0200,0.0161 0 0
GGAAACCGAGUAUGC,0.192,0.0491 0.0964 0.0952,0.0162 0.0223 0.0200,0 0 0
GGAAACCGAGUAUUC,0.240,0.115 0.0803 0.114,0.0485 0.0223 0,0 0 0.0228
GGAAACCGAGUCAAC,0.320,0.131 0.112 0.209,0 0 0,0 0 0
GGAAACCGAGUCACC,0.256,0.0491 0.0964 0.0381,0.0162 0 0,0.0161 0 0
GGAAACCGAGUCAGC,0.160,0.131 0.0482 0.0952,0 0 0.0200,0 0 0
GGAAACCGAGUCAUC,0.208,0.131 0.129 0.114,0 0 0,0.0161 0 0
GGAAACCGAGUCCAC,0.224,0.0819 0.0321 0.133,0 0 0.0200,0 0 0
GGAAACCGAGUCCCC,0.208,0.213 0.225 0.133,0 0 0.0200,0 0 0
GGAAACCGAGUCCGC,0.240,0.0983 0.0482 0.0952,0 0 0.0200,0 0 0
GGAAACCGAGUCCUC,0.304,0.0983 0.0964 0.0952,0 0 0,0 0 0
GGAAACCGAGUCGAC,0.160,0.0655 0.0643 0.0571,0 1.94 0,0 0 0
GGAAACCGAGUCGCC,0.208,0.0655 0.0964 0.0762,0 0 0,0 0 0
GGAAACCGAGUCGGC,0.240,0.0819 0.112 0.152,0 0 0,0 0 0
GGAAACCGAGUCGUC,0.208,0.131 0.0964 0.0952,0 0.0223 0,0 0 0
GGAAACCGAGUCUAC,0.0960,0.0655 0.0482 0.114,0 0 0.100,0 0 0
GGAAACCGAGUCUCC,0.208,0.0655 0.112 0.171,0 0 0.0200,0.0161 0 0
GGAAACCGAGUCUGC,0.176,0.115 0.0321 0.133,0.0162 0 0,0 0 0
GGAAACCGAGUCUUC,0.176,0.147 0.0964 0.133,0 0 0,0.0161 0 0
GGAAACCGAGUGAAC,0.160,0.115 0.112 0.0762,0.0162 0 0,0 0 0
GGAAACCGAGUGACC,0.208,0.0655 0.0964 0.0952,0 0 0,0.0161 0 0
GGAAACCGAGUGAGC,0.144,0.0983 0.0482 0.114,0 0 0,0.0161 0 0
GGAAACCGAGUGAUC,0.288,0.0983 0.145 0.152,0 0 0,0 0 0
GGAAACCGAGUGCAC,0.160,0.115 0.0803 0.0952,0.0162 0.0445 0.0401,0 0 0
GGAAACCGAGUGCCC,0.224,0.459 0.305 0.324,0 0 0.0200,0 0 0
GGAAACCGAGUGCGC,0.288,0.131 0.177 0.0571,0 0 0,0 0 0
GGAAACCGAGUGCUC,0.240,0.0819 0.0161 0.0762,0.0323 0.0223 0.0200,0 0 0
GGAAACCGAGUGGAC,0.256,0.0819 0.0643 0.133,0 0.0223 0,0 0 0
GGAAACCGAGUGGCC,0.320,0.0983 0.161 0.0952,0.0485 0.0223 0,0.0322 0 0.0228
GGAAACCGAGUGGGC,0.224,0.0819 0.337 0.248,0.0162 0 0,0 0 0
GGAAACCGAGUGGUC,0.192,0.0164 0.145 0.152,0 0.0223 0,0 0 0
GGAAACCGAGUGUAC,0.240,0.311 0.434 0.495,0.0485 0.0891 0.0601,0.0644 0.0454 0.0228
GGAAACCGAGUGUCC,0.112,0.0491 0.112 0.0762,0 0 0.0801,0 0 0
GGAAACCGAGUGUGC,0.208,0.0819 0.0803 0.0381,0 0 0,0.0161 0 0
GGAAACCGAGUGUUC,0.224,0.229 0.257 0.324,0.0970 0.0668 0.180,0.0483 0 0
GGAAACCGAGUUAAC,0.240,0.229 0.273 0.0762,0 0.0223 0.0401,0.0322 0 0
GGAAACCGAGUUACC,0.192,0.131 0.129 0.0571,0 0.0223 0,0 0 0
GGAAACCGAGUUAGC,0.208,0.0491 0.193 0.171,0 0 0.0200,0 0 0
GGAAACCGAGUUAUC,0.320,0.0655 0.0643 0.152,0 0.0445 0.0401,0.0161 0 0
GGAAACCGAGUUCAC,0.0960,0.0328 0.0643 0.0381,0 0 0,0 0 0
GGAAACCGAGUUCCC,0.288,0.115 0.0964 0.228,0 0 0.0200,0 0 0
GGAAACCGAGUUCGC,0.240,0.0491 0.0803 0.0571,0 0 0,0 0 0
GGAAACCGAGUUCUC,0.240,0.0164 0.0482 0.0381,0 0 0,0 0 0
GGAAACCGAGUUGAC,0.176,0.164 0.0964 0.133,0.0162 0 0.0200,0 0 0.0228
GGAAACCGAGUUGCC,0.208,0.0819 0.0643 0.0190,0 0.0223 0,0.0161 0 0
GGAAACCGAGUUGGC,0.224,0.115 0.112 0.114,0 0 0.0200,0 0 0
GGAAACCGAGUUGUC,0.240,0.131 0.129 0.114,0.0162 0.0223 0,0 0 0
GGAAACCGAGUUUAC,0.192,0.147 0.0803 0.114,0.0162 0 0.0200,0 0 0
GGAAACCGAGUUUCC,0.288,0.0983 0.129 0.152,0.0162 0.0223 0.0401,0 0 0
GGAAACCGAGUUUGC,0.240,0.0328 0.0643 0.133,0 0.0223 0.0200,0 0 0
GGAAACCGAGUUUUC,0.240,0.0983 0.129 0.133,0 0 0.0401,0.0161 0.0151 0
GGAAACCGAUAAAAC,0.176,0.328 0.289 0.209,0.0970 0.178 0.180,0.0805 0 0.114
GGAAACCGAUAAACC,0.208,0.180 0.0643 0.114,0.0162 0 0,0 0 0

A selection of 10 entries from above:

sequence,pool,inoculated region,leaf margin,systemic leaves
GGAAACCGAGUCGAC,0.160,0.0655 0.0643 0.0571,0 1.94 0,0 0 0
GGAAACCGAGUCCUC,0.304,0.0983 0.0964 0.0952,0 0 0,0 0 0
GGAAACCGAGUGAGC,0.144,0.0983 0.0482 0.114,0 0 0,0.0161 0 0
GGAAACCGAGUAUCC,0.272,0.197 0.289 0.0762,0 0.0223 0.0200,0.0161 0 0
GGAAACCGAGUUGCC,0.208,0.0819 0.0643 0.0190,0 0.0223 0,0.0161 0 0
GGAAACCGAGUGAAC,0.160,0.115 0.112 0.0762,0.0162 0 0,0 0 0
GGAAACCGAGGUGCC,0.224,0.0491 0.145 0.133,0 0 0,0 0 0
GGAAACCGAGUAAAC,0.240,0.131 0.0482 0.0762,0.0162 0 0.0200,0 0 0
GGAAACCGAGUCGUC,0.208,0.131 0.0964 0.0952,0 0.0223 0,0 0 0
GGAAACCGAGUUCCC,0.288,0.115 0.0964 0.228,0 0 0.0200,0 0 0